Paper PMC8509923
Construct, isoform or probe ends are uncertain for at least one entry.

Assays:
[1] = target: T1, Upc2A DNA-binding domain (Candida glabrata) (UniProt Q6FX18); assay: DNase I footprinting; conditions: 5' amino-MC6 on reverse strand, recombinant protein, residues 1-150, protein details: 6xHis (pET28a+, Upc2A-6X His), label: 5' 32P on forward strand, probe letters rebuilt from the primers and the genome
T1 sequence: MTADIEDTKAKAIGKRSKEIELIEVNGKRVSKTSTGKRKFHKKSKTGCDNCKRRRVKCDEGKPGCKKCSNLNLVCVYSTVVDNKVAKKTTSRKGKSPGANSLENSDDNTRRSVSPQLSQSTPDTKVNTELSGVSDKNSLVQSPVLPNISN

[2] = target: T1, Upc2A DNA-binding domain (Candida glabrata); assay: EMSA; conditions: recombinant protein, residues 1-150, protein details: 6xHis (pET28a+, Upc2A-6X His), label: 5' biotin on one strand, probe letters rebuilt from the primers and the genome

## CAAAGACCCCAGTATTTGTAGACTCATTCCACGGAGCAAAATGTGCTATAAGGATTATTTCTCTGTGCTTCATTTTCTACCTCGTAGATTAGGTTACGTTCAAATTTTAAGTGGCAAAACCATATCCTGATC (double strand) [PDR1 promoter DNase I probe]
[1]; protected region, no hypersensitive site
  binding result: binds

## CGGTCTGTGCTAATGTAATACACTCTGATCTATGTCCTGGGTTTGCCAACATGTAAACGAAGGCTAATCGTGTTCCGGTAGTCCCGCTGCTCTTCTGTGTGGCAGTGGTACGGTGGAGGTAGAGGTCCCTGCCTTTGATTCTTCCAAACAGAGTTGGGCTACTTTAGGGGTC (double strand) [CDR1 promoter EMSA probe wt]
[2]
  binding result: binds

## GAACAAGCCCTGTGCATGTCTGGGTGTTGGTAGCACACGTATACGATCGTATACGTGATAGAGTCGGTGTGCCCATAGAAAGTCTCGGCAATCTGTTACTACATTGGCTTATACATCTACTTACCCGCTGTCGCAAGGGGCTGTCGCAAAGGGCTGTGGCAAAGGAGGACTGATCCCCAGCCTCTTATCCTCTACCCCTCTCTCTTTCTCTCC (double strand) [ERG1 promoter EMSA probe wt]
[2]; two complexes
  binding result: binds

## CACGGAATAGGAGGCTCATCGGGACAACTCAGGTGTAGTACTGACGATCAGGATATGGTTTTGCCACTTAAAATTTGAACGTAACCTAATCTACGAGGTAGAAAATGAAGCACAGAGAAATAATCCTTATAGCACATTTTGCTCCGTGGAATGAGTCTACAAATACTGGGGTCTTTG (double strand) [PDR1 promoter EMSA probe wt]
[2]
  binding result: binds

## GATTGCCGAGACTTTCTATGGGCACACCGACTCTATCACGTATACGATCGTATACGTGTGCTACCAACACCCAGACATGCACAGGGCTTGTTCTCGTACAGTGTCACCCCCGTTTAGAGACATCTCTGCTGTGCCATCCAGTGTCCGTAAACGACTAGCGACTCTTTGAAGGGACCACAAGGCAAGAGCGAGCTATACGAGC (double strand) [ERG1 promoter DNase I probe]
[1]; largest protected region, hypersensitive site upstream of SRE
  binding result: binds
